Measurements from US20210292392A1 (TSB THERAPEUTICS BEIJING, published 2021).

B1: P5A-2G7 (antibody, human IgG1, lambda, V domains shown)
VH: QVQLQESGPGLVKPSETLSLTCTVSGDSVSSGSYYWSWIRQPPGKGLEWIGYIYYSGSTNYNPSLKSRVTISVDTSKNQFSLKLSSVTAADTAVYYCARERCYYGSGRAPRCVWFDPWGQGTLVTVSS
VL: QSALTQPASVSGSPGQSITISCTGTSSDVGGYNYVSWYQQHPGKAPKLMIYDVSNRPSGVSNRFSGSKSGNTASLTISGLQAEDEADYYCSSYTSSSTLVVFGGGTKLTVLG
B2: P5A-2G9 (antibody, human IgG1, lambda, V domains shown)
VH: QVQLVESGGGVVQPGRSLRLSCAASGFTFSSYGMHWVRQAPGKGLEWVAVIWYDGSNKYYADSVKGRFTISRDNSKNTLYLQMNSLRAEDTAVYYCARWFHTGGYFDYWGQGTLVTVSS
VL: QPVLTQPPSSSASPGESARLTCTLPSDINVSSYNIYWYQQKPGSPPRYLLYYYSDSDKGQGSGVPSRFSGSKDASANTGILLISGLQSEDEADYYCMIWPSNALYVFGTGTKVTVLG
B3: P5A-1D2 (antibody, human IgG1, lambda, V domains shown)
VH: EVQLVESGGGLIQPGGSLRLSCAASGFIVSSNYMSWVRQAPGKGLEWVSIIYSGGSTYYADSVKGRFTISRDNSNNTLYLQMNSLRAEDTAVYYCARALQVGATSDYFDYWGQGTLVTVSS
VL: QSVLTQPPSVSGAPGQRVTISCTGSSSNIGAGYDVHWYQQLPGTAPKLLIYGNSNRPSGVPDRFSGSKSGTSASLAITGLQAEDETDYYCQSCDSSLSVVVFGGGTKLTVLG
B4: P2A-1A8 (antibody, V domains shown)
VH: EVQLVESGGDLVQPGRSLRLSCAASGFAFDDYAMHWVRQAPGKGLEWVSGSTWNSGTIAYADSVKGRFTISRDNAKKSLYLQMNSLRTEDTALYYCAKLGGYSDYDYPRPGDHYYGLDVWGQGTTVTVSS
VL: QSALTQPASVSGSPGQSITISCTGTSSDVGSYNLVSWYQQHPGKVPKLLIYDVNKRPSGISNRFSGSKSGNTASLTISGLQAEDEADYYCRSYTDSNTYVFGTGTKVTVLG
notes: human IgG1, lambda
B5: P2A-1A10 (antibody, V domains shown)
VH: not shown
VL: DIVMTQTPLSLPVTPGEPASISCRSSQSLLDSDDGNTYLDWYLQKPGQSPQLLIYTLSYRASGVPDRFSGSGSGTDFTLKISRVEAEDVGVYYCMQRIEFPLTFGGGTKVEIKR
notes: human IgG1, kappa
B6: P2A-1B3 (antibody, V domains shown)
VH: EVQLVESGGGLVQPGGSLRLSCVASGFSFNRYSMNWLRQTPRKGLEWLSYISASGNTIYYADSVRGRFTTSRDNAKNTLYLQMNSLRDDDTAVYFCARPAMVREGTYNWFDPWGQGTLVTVSS
VL: EIVLTQSPGTLSLSPGERATLSCRASQSVSNDYLAWYQQKPGQAPRLLIYYASSRATGIPDRFSGSGSGTDFTLTISRLEPGDSAVYYCQQYGDSPPITFGQGTRLEIKR
notes: human IgG1, kappa
B7: P2A-1A9 (antibody, V domains shown)
VH: EVQLVESGGGLVQPGRSLRLSCAASGFTFDDYAMHWVRQVPGKGLEWVSGISWNGGIIGYADSVKGRFTISRDNAKTSLYLQMNSLRAEDTALYYCAKVAGRGDYDYYYGMDVWGQGTTVTVSS
VL: B3 VL with S54N, T86A, C93Y, V99G, V100S
notes: human IgG1, lambda
B8: P2B-2G11 (antibody, V domains shown)
VH: B7 VH with V40A, R87K, A88P
VL: B3 VL with S54N, T86A, C93Y, V99G, V100S
notes: human IgG1, lambda
B9: P2B-2G4 (antibody, V domains shown)
VH: QVQLVESGGGVVQPGRSLRLSCAASGFTFSSYGMHWVRQAPGKGLEWVAVIWYDGSNKYYADSVKGRFTISRDNSKNTLYLQMNSLRAEDTAVYYCARGAAMVWLDYWGQGTLVTVSS
VL: B1 VL with A8R, I18V, N55K, S61P, N62D, S91C, T94A, S95G, S97Y, L99F
notes: human IgG1, lambda

Columns and labels:
[1] = biological target: spike protein of live SARS-CoV-2 (SARS-CoV-2, UniProt P0DTC2 14-1273); assay: cell-based or functional assay
[2] = biological target: recombinant RBD of the spike protein of SARS-CoV-2 (residues Arg319-Phe541) (SARS-CoV-2, UniProt P0DTC2 319-541); assay: SPR, RBD on CM5 chip
[3] = biological target: recombinant RBD of the spike protein of SARS-CoV (SARS-CoV, UniProt P59594 306-527); assay: SPR, RBD on CM5 chip

Binder | Live virus IC50 [1] [µg/mL] | Live virus IC80 [1] [µg/mL] | Kd [2] [nM] | binding result [3]
B1 | 0.181 | 0.836 |  | 
B2 | 0.0113 | 0.119 |  | 
B3 | 0.0273 | 0.432 |  | 
B4 |  |  | 8.91 | no binding (tested: not printed)
B5 |  |  |  | no binding (tested: not printed)
B6 |  |  |  | no binding (tested: not printed)
B7 |  |  |  | no binding (tested: not printed)
B8 |  |  |  | no binding (tested: not printed)
B9 |  |  |  | no binding (tested: not printed)

Substitutions are numbered along the chain they refer to. Names may count otherwise.
